Anti-infective test results gathered from many reports (values: NIAID ChemDB through PubChem).

All rows: growth or infection tests; agent: HIV-1; method: p24; read-out: EC50

ECn is the concentration giving n% inhibition of infection, replication or growth. Neighbouring rows are from separate reports. Two numbers with a dash give a range or band. An empty or dashed field is not shown.

SMILES	changes	cells	strain or isolate	value
COc1ccc(S(=O)(=O)N(CCC(O)CN(CC(C)C)S(=O)(=O)c2ccccc2)CC(C)C)cc1		CEM	IIIB	<1 µM
CCOC(=O)NC(C)(C)C(=O)N[C@@]12CC[C@]3(C)[C@H](CC[C@@H]4[C@@]5(C)CC[C@H](OC(=O)C6C[C@@H](C(=O)O)C6(C)C)C(C)(C)[C@@H]5CC[C@]43C)C1=C(C(C)C)C(=O)C2	V7A	MT-4	NL4-3	>0.05 µM
CN1CCn2c(nc(C(=O)NCc3ccc(F)cc3)c(O)c2=O)C(NS(C)(=O)=O)C1		MT-4		<50 µM
CC(C)C1=C2[C@H]3CC[C@@H]4[C@@]5(C)CC[C@H](OC(=O)C6C[C@@H](C(=O)O)C6(C)C)C(C)(C)[C@@H]5CC[C@@]4(C)[C@]3(C)CC[C@@]2(NC(=O)C(C)(C)NC(=O)c2ccc(Cl)cn2)CC1=O	V7A	MT-4	NL4-3	<0.01 µM
CC1(C)c2nc(C(=O)NCc3ccc(F)cc3)c(O)c(=O)n2CCN1Cc1cnco1		MT-4		<1 µM
CC(C)C1=C2[C@H]3CC[C@@H]4[C@@]5(C)CC[C@H](OC(=O)C6C[C@@H](C(=O)O)C6(C)C)C(C)(C)[C@@H]5CC[C@@]4(C)[C@]3(C)CC[C@@]2(NC(=O)C(C)(C)NC(=O)c2ccc(C(F)(F)F)cc2)CC1=O		MT-4	NL4-3	<0.005 µM
CC(C)=CCOc1cc(NC(=S)c2ccsc2C)ccc1Cl	RT-Y181C	CEM + CEM-SS	4XAZT+Y181C (RT D67N K70R Y181C T215Y K219Q)	0.1 µM
Cc1ccc(-c2ccc3c(c2)C=C(C(=O)Nc2ccc(C[N+](C)(C)C4CCOCC4)cc2)CCC3)cc1		PBMC	TB8 CLADE C	<1 µM
Nc1ccc(S(=O)(=O)N(Cc2ccccc2)CC(F)(F)C(=O)[C@@H](Cc2ccccc2)NC(=O)O[C@H]2CCOC2)cc1		CEM	IIIB	<1 µM
CCN1c2ncc(CCOc3ccc(-c4ccc(CC(=O)O)cc4)cc3C)cc2C(=O)Nc2c(C)ccnc21	RT-K103N Y181C	C8166		0.01–0.05 µM
Cc1nc(C)c(C(=O)NC(C)(C)C(=O)N[C@@]23CC[C@]4(C)[C@H](CC[C@@H]5[C@@]6(C)CC[C@H](OC(=O)C7C[C@@H](C(=O)O)C7(C)C)C(C)(C)[C@@H]6CC[C@]54C)C2=C(C(C)C)C(=O)C3)s1	V7A	MT-4	NL4-3	0.01001–0.05 µM
Clc1cc(CN2CCCNCCNCCCNCC2)cc(Cl)n1		PBMC	X4 clinical isolate #17	5.9 µM
CC(C)CN(C[C@@H](O)[C@H](Cc1ccccc1)NC(=O)O[C@H]1CO[C@H]2OCC[C@H]21)S(=O)(=O)c1ccc2c(c1)OCO2		PHA-PBM	ERS104pre	0.0005 µM
CCN1c2ncc(CCOc3ccc(C(=O)Nc4ccccc4C(=O)O)cc3C)cc2C(=O)N(C)c2cccnc21	RT-K103N Y181C	C8166		>0.05 µM
CC(=O)N(Cc1ccccc1)C1CN(C)CCn2c1nc(C(=O)NCc1ccc(F)cc1)c(O)c2=O		MT-4		<1 µM
COc1ccc(S(=O)(=O)N(CC(C)C)C(=O)C(=O)C(=O)[C@@H](Cc2ccccc2)NC(=O)O[C@H]2CCOC2)cc1		CEM	IIIB	<1 µM
CCN1c2ncc(CCOc3ccc(NC(=O)CC4(C(=O)O)CCCC4)cc3C)cc2C(=O)N(C)c2cccnc21	RT-K103N Y181C	C8166		<0.01 µM
CN(CC1c2nc(C(=O)NCc3ccc(F)cc3)c(O)c(=O)n2CCN1C)C(=O)c1ccccn1		MT-4		1–10 µM
CCN1c2ncc(CCOc3ccc(-c4ccc(C(=O)O)cc4)cc3)cc2C(=O)N(C)c2cccnc21	RT-K103N Y181C	C8166		>0.05 µM
COc1ccc(S(=O)(=O)N(CC(C)C)C[C@@H](O)CCN(CC2CCCC2)S(=O)(=O)c2nccs2)cc1		CEM	IIIB	<1 µM
Cc1cc(-c2ccc[n+]([O-])c2)ccc1OCCc1cnc2c(c1)C(=O)Nc1c(C)ccnc1N2C1CC1		C8166	IIIB	<0.01 µM
O=C(NCc1ccc(F)cc1)c1nc2n(c(=O)c1O)CCN(Cc1cn[nH]n1)C2		MT-4		<50 µM
CCN1c2ncc(CCOc3ccc(-c4cc(CC(=O)O)ccc4OC)cc3C)cc2C(=O)N(C)c2cccnc21	RT-K103N Y181C	C8166		0.01–0.05 µM
COc1ccc(S(=O)(=O)N(CC2CCCC2)C[C@@H](O)CN(CCc2ccccc2)C(=O)Oc2ccccc2)cc1		CEM	IIIB	<1 µM
Cc1ccc(C)n1-c1ccc(C(=O)O)c(O)c1		PBMC + MT-2	92US657 R5 CLADE B	44.13 µM
Cn1ccc(CN2CCn3c(nc(C(=O)NCc4ccc(F)cc4)c(O)c3=O)C23CCOCC3)n1		MT-4		<1 µM
CC(C)[C@H](NC(=O)OCc1ccccn1)C(=O)N[C@@H](Cc1ccccc1)[C@@H](O)C[C@H](Cc1ccccc1)NC(=O)OCc1cccnc1	PR-M46I L63P V82T	MT-4	NL4-3	<3 µM
COc1ccc(S(=O)(=O)N(CC[C@@H](O)CN2CCCC[C@H]2C(=O)NC(C)(C)C)CC(C)C)cc1		CEM	IIIB	<1 µM

The last 3 rows once more:

SMILES,changes,cells,strain or isolate,value
Cn1ccc(CN2CCn3c(nc(C(=O)NCc4ccc(F)cc4)c(O)c3=O)C23CCOCC3)n1,,MT-4,,<1 µM
CC(C)[C@H](NC(=O)OCc1ccccn1)C(=O)N[C@@H](Cc1ccccc1)[C@@H](O)C[C@H](Cc1ccccc1)NC(=O)OCc1cccnc1,PR-M46I L63P V82T,MT-4,NL4-3,<3 µM
COc1ccc(S(=O)(=O)N(CC[C@@H](O)CN2CCCC[C@H]2C(=O)NC(C)(C)C)CC(C)C)cc1,,CEM,IIIB,<1 µM